In brackets after ≈: the same amount, converted by molar mass.
Tested on: Ascosphaera apis
Assay: Inhibition of radial growth of Ascosphaera apis mycelium in potato-saccharose agar
Assay type: cell-based
Conditions: 72 h; for Mycelium Growth Inhibition (I), %: A. apis, concentration 30 mg/L, potato-saccharose agar, 25 °C; for EC50 (mg/L) ± SD, fungicidal activity: A. apis mycelium growth

| SMILES | Mycelium Growth Inhibition (I), % [%] | EC50 (mg/L) ± SD, fungicidal activity [mg/L] |
| --- | --- | --- |
| CC(C)CCC1C2(C)OOC1(C)OO2 (stereo not drawn) | 66 |  |
| CCCCCC1C2(C)OOC1(C)OO2 (stereo not drawn) | 100 | 7.5 ± 1.0 (≈ 37.1 µM) |
| C=CCC1C2(C)OOC1(C)OO2 (stereo not drawn) | 100 | 10.9 ± 0.7 (≈ 63.3 µM) |
| CCCCCCC1C2(C)OOC1(C)OO2 (stereo not drawn) | 49 |  |
